Reference: ChEMBL document CHEMBL4411302, “Aryl H-phosphonates. 19. New anti-HIV pronucleotide phosphoramidate diesters containing amino- and hydroxypyridine auxiliaries” (Eur J Med Chem, 2019)

Legend:
[1] = tested on: Human immunodeficiency virus 1; assay: Antiviral activity against HIV1 infected in human CEM-T4 cells assessed as protection against virus-induced cytopathogenicity by measuring reduction in p24 level preincubated with cells for 24 hrs followed by viral infection and measured after 8 days by MTT assay
[2] = Selectivity index, ratio of CC50 for human CEM-T4 cells to EC50 for HIV1 infected in human CEM-T4 cells
[3] = Half life of the compound in RPMI media at 37 degC; format: physicochemical
[4] = Prodrug activation in RPMI media assessed as hydrolysis by measuring P-O bond cleavage

Cc1cn([C@H]2C[C@H](N=[N+]=[N-])[C@@H](COP(=O)(Nc3ccccn3)Oc3ccccn3)O2)c(=O)[nH]c1=O (some centres not stated)
EC50 [1]: < 6 nM
Ratio CC50/EC50 [2]: > 16200
t1/2 [3]: 25 h

Cc1cn([C@H]2C[C@H](N=[N+]=[N-])[C@@H](COP(=O)(Nc3ccccn3)Oc3ccccc3)O2)c(=O)[nH]c1=O (some centres not stated)
EC50 [1]: < 12 nM
Ratio CC50/EC50 [2]: > 11200
t1/2 [3]: 384 h

Cc1cn([C@H]2C[C@H](N=[N+]=[N-])[C@@H](COP(=O)(Nc3ccccn3)Oc3cccnc3)O2)c(=O)[nH]c1=O (some centres not stated)
EC50 [1]: 20 nM
Ratio CC50/EC50 [2]: 3900
t1/2 [3]: 40 h

Cc1cn([C@H]2C[C@H](N=[N+]=[N-])[C@@H](COP(=O)(Nc3ccccn3)Oc3ccncc3)O2)c(=O)[nH]c1=O (some centres not stated)
EC50 [1]: Nd(Unstable)
Drug metabolism [4]: Nd(Unstable)
t1/2 [3]: Nd(Unstable)
